The results in this text go back to paper PMC7043342.

In series [1] the target is ComE D58E (phosphomimetic) (UniProt Q79CK7). Put plainly: EMSA. Particulars: 5 mM MgCl2, poly(dI-dC), weaker than with SPD_1495; recombinant protein; residues 1-250; label: 5'-biotin (on cpsF primer); probe letters rebuilt from the primers and the genome. (In general: Mobility shift assays separate free from complexed probe on a gel.)
In series [2] the test system is ComE D58E (phosphomimetic) + SPD_1495. Put plainly: EMSA. The note with it: 5 mM MgCl2, poly(dI-dC), stronger than ComE D58E alone; recombinant protein; protein details: GST removed by thrombin (pGEX-4T-1); label: 5'-biotin (on cpsF primer); probe letters rebuilt from the primers and the genome.

For at least one entry, the source does not settle the construct or the ends of the probe.

For the sequence “TACACATCTGCTTCTAAAATATTGTTAGAAAACGATTTGACTGTCCTGATCAATTTGTCATGTTCTTATTTCATTTTACTATATTTTTGGTTCGCGGGAAGTCTACTAAGATACTTAAAGATGCAGATAGTGAAAAAAGGTGTAGACATTACCGTAAAAAAGTGATATAATCGTAAGATGTTCAATGTATAGGTGTTAATCATGAGTAGACGTTTTAA (double strand) [Bio-cps (cps upstream promoter)]”, the binding result in series [1] and in series [2] was “binds” throughout.
